{"source": "patent US20240181044A1", "molecular_target": "RBD (SARS-COV-2) (UniProt P0DTC2)", "experiment": "SPR"}
{"substance": "C135", "values": [{"measurement": "Kd", "value": 2.4, "unit": "nM"}]}
